The text below walks through data of PubChem BioAssay AID1943 (The Scripps Research Institute Molecular Screening Center, 2009).

The entries are a selection whose mix differs from that of the whole data set. Activity calls are given as the source filed them.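 The calls were made as follows: active = inhibition above the mean of all tested compounds plus 3 SD, cutoff set per campaign (cut at about 36% in these data); inactive = the rest.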

The test system of the assay is Hepatitis C virus NS3 helicase. Nature of the assay: HCV NS3 helicase inhibitors, retest, confirmation, biochemical, Cy5 molecular beacon fluorescence, triplicate (AID 1943). The following applies: NS3 helicase DNA unwinding, at 10.9 µM, stronger effect = higher value. The method in brief:
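Test system: HCV NS3 helicase fragment enzyme | Medium: MOPS buffer pH 6.5 with MgCl2, DTT, Tween20 and BSA | Also added: Annealed DNA duplex bearing Cy5/quencher molecular beacon strand, ATP as starter | Schedule: 0 and 60 min reads at 25 °C | Detection: Cy5 fluorescence quenching by beacon hairpin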
Broadly, the inhibition is the relative decrease from the control value, in per cent. For the compound `Nc1cccc2c([As](=O)(O)O)cccc12`, the inhibition is inactive: -16.6%.
With `O=[N+]([O-])c1cc([N+](=O)[O-])c(CCN2CCOCC2)c([N+](=O)[O-])c1`, the inhibition was inactive: 13.2%.
In the case of `C[N+]1=C2C=CC=CC=C2SC12C([N+](=O)[O-])=CC([N+](=O)[O-])=C[C-]2[N+](=O)[O-]` (stereo not drawn), the inhibition was inactive: 15.8%.
